From publication PMC5902452, “In silico optimization of a guava antimicrobial peptide enables combinatorial exploration for peptide design” (Nature Communications, 2018)
Peptide text beside a SMILES is read from it.

Test: CD spectroscopy (secondary structure content)
Format: physicochemical
Settings: for α-helical content: pH 4, 25 °C, peptide 38 μM, from ellipticity at 222 nm

Question: What does the source list for CC[C@H](C)[C@H](NC(=O)[C@H](CCCNC(=N)N)NC(=O)[C@H](Cc1ccc(O)cc1)NC(=O)CNC(=O)[C@H](Cc1ccc(O)cc1)NC(=O)[C@H](CCCNC(=N)N)NC(=O)[C@H](CC(C)C)NC(=O)[C@H](C)NC(=O)[C@H](CCC(N)=O)NC(=O)[C@H](CCC(=O)O)NC(=O)[C@@H](NC(=O)[C@H](CCC(N)=O)NC(=O)[C@H](CCCNC(=N)N)NC(=O)[C@H](CCSC)NC(=O)[C@H](Cc1ccc(O)cc1)NC(=O)[C@H](CCC(N)=O)NC(=O)[C@@H](N)CCCNC(=N)N)[C@@H](C)CC)C(=O)N[C@@H](CO)C(=O)N[C@@H](CCCNC(=N)N)C(=O)N[C@@H](CCCNC(=N)N)C(N)=O [Guavanin 2] (H-RQYMRQIEQALRYGYRISRR-NH2)?
Answer: α-helical content (DPC micelles 20 mM): 39%; α-helical content (SDS micelles 20 mM): 42%; secondary structure by CD (water, pH 7, 25 °C, peptide 33 μM): no defined secondary structure
